The results in this text go back to paper PMC12153317 (2025).

For assay [1], the target named is T1, specific HAs not engaged in ELISA (soluble HA ectodomains) (influenza virus). Put plainly: ELISA; B/Brisbane/60/2008. (In general: ELISA stands for enzyme-linked immunosorbent assay.)
Assay [2] has as its target T2, several other HA subtypes within groups 1 and 2 (soluble HA ectodomains, ELISA) (influenza A virus). The assay is described as follows: ELISA; A/Taiwan/1/2017 H7N9.
Assay [3] concerns the target T1, specific HAs not engaged in ELISA …. The assay is described as follows: ELISA; A/Taiwan/2/2013 H6N1.
For assay [4], the target named is T3, all seasonal H1s (1977–2019) assayed (soluble HA ectodomains, ELISA) (influenza A virus). The assay is described as follows: ELISA; A/California/04/2009 H1N1.
In assay [5] the target is T4, all seasonal H3s (1968–2020) assayed (soluble HA ectodomains, ELISA) (influenza A virus). Put plainly: ELISA; A/Aichi/02/1968(X31) H3N2.
Assay [6] deals with T2, several other HA subtypes within groups …. The assay is described as follows: ELISA; A/northern shoveler/California/HKWF1204/2007 H8N4.
Assay [7] deals with T4, all seasonal H3s (1968–2020) assayed …. Put plainly: ELISA; A/Tasmania/503/2020(IVR-221) H3N2.
For assay [8], the target named is T2, several other HA subtypes within groups …. The assay is described as follows: ELISA; A/swine/Hong Kong/9/98 H9N2.
The target of assay [9] is T4, all seasonal H3s (1968–2020) assayed …. The assay is described as follows: ELISA; A/Hong Kong/4801/2014 H3N2.
In assay [10] the target is T2, several other HA subtypes within groups …. The assay is described as follows: ELISA; A/turkey/Wisconsin/1/1966 H9N2.
Assay [11] has the same target. Put plainly: ELISA; A/American black duck/New Brunswick/00464/2010 H4N6.
The target of assay [12] is T4, all seasonal H3s (1968–2020) assayed …. The assay is described as follows: ELISA; A/Wisconsin/67/2005 H3N2.
The target in assay [13] is T3, all seasonal H1s (1977–2019) assayed …. The assay is described as follows: ELISA; A/Texas/36/1991 H1N1.
The target in assay [14] is T4, all seasonal H3s (1968–2020) assayed …. The assay is described as follows: ELISA; A/Philippines/02/1982 H3N2.
In assay [15] the target is T1, specific HAs not engaged in ELISA …. The assay is described as follows: ELISA; A/duck/Memphis/546/1974 H11N9.
In assay [16] the target is T3, all seasonal H1s (1977–2019) assayed …. The assay is described as follows: ELISA; A/USSR/90/1977 H1N1.
For assay [17], the target named is T2, several other HA subtypes within groups …. The assay is described as follows: ELISA; A/wedge-tailed shearwater/Western Australia/2576/1979 H15N9.
In assay [18] the target is T3, all seasonal H1s (1977–2019) assayed …. Put plainly: ELISA; A/Victoria/2570/2019(IVR-215) H1N1.
Assay [19] has the same target. The assay is described as follows: ELISA; A/Solomon Islands/3/2006 H1N1.
Assay [20] shares this target. The assay is described as follows: ELISA; A/Chile/01/1983 H1N1.
The target in assay [21] is T2, several other HA subtypes within groups …. The assay is described as follows: ELISA; A/black-headed gull/Sweden/2/99 H16N3.
Assay [22] has as its target T4, all seasonal H3s (1968–2020) assayed …. The assay is described as follows: ELISA; A/Sydney/05/1997 H3N2.
Assay [23] concerns the target T2, several other HA subtypes within groups …. Put plainly: ELISA; A/mallard/Wisconsin/10OS3941/2010 H14N6.

B1: FI6v3 recombinant human IgG (antibody, V domains shown)
VH: QVQLVESGGGVVQPGRSLRLSCAASGFTFSTYAMHWVRQAPGKGLEWVAVISYDANYKYYADSVKGRFTISRDNSKNTLYLQMNSLRAEDTAVYYCAKDSQLRSLLYFEWLSQGYFDYWGQGTLVTVSS
VL: DIVMTQSPDSLAVSLGERATINCKSSQSVTFNYKNYLAWYQQKPGQPPKLLIYWASTRESGVPDRFSGSGSGTDFTLTISSLQAEDVAVYYCQQHYRTPPTFGQGTKVEIK
Usually Kd stands for the free concentration of one partner at which half of the binding sites on the other are occupied at equilibrium, for simple one-to-one binding. High values mean a looser complex, low ones a tighter complex. On to B1, for which the Kd in assay [1] is above 100 nM; in [2], 0.24 nM; in assay [3], 0.47 nM; in assay [4] it was 0.42 nM; in [5], 0.31 nM; in assay [6], 0.29 nM. For the same molecule, the Kd in assay [7] is 2.8 nM; in [8], 0.4 nM; in [9] it was 0.88 nM; in assay [10] it was 0.37 nM; in assay [11] it was 1.4 nM; in [12], 3.5 nM. Further, the Kd in assay [13] turned out to be 0.28 nM; in [14] it was 1.2 nM; in [15], 0.74 nM; in assay [16], 0.32 nM; in assay [17], 2.5 nM; in [18], 0.35 nM. Besides, the Kd is 0.67 nM in [19]; 0.33 nM in [20]; 0.55 nM in [21]; 3 nM in assay [22]; 1.4 nM in [23].

B2: S1V2-17 recombinant human IgG1 (antibody, V domains shown)
VH: QVKLVQSGAEVKKPGASVKVSCKVSGYTLSELSIHWVRQVPGKGLESMGGFDPEDDGAIYAESFQGRVTMTEDTSTDTSFMELHSLRSEDTAVYYCVTWLVGTTVAAYWGQGTLVTVS
VL: MTQTPFSLPVTPGEPASISCRSSQSLLYSNGYNHLDWYLQKPGQSPQLLIYLGSYRASGVPDRFSGSGSGTDFTLKISRVEADDVGVYYCMQALQAPRTFGQGTKVEIK
With B2, the dissociation constant Kd was 0.11 nM in assay [2]; 6.9 nM in [4]; 0.34 nM in [5]; 9.2 nM in assay [6]; 0.62 nM in assay [7]; 13 nM in assay [8]. Moreover, the dissociation constant Kd in assay [9] was determined as 0.85 nM; in assay [11], 0.55 nM; in [12] it was 0.99 nM; in assay [13], 2.9 nM; in [14], 0.58 nM; in [16], 7 nM. The Kd came out at 61 nM in [17]; 2.8 nM in assay [18]; 14 nM in assay [19]; 13 nM in assay [20]; 0.5 nM in assay [22]; 1.9 nM in assay [23].

B3: S1V2-65 recombinant human IgG1 (antibody, V domains shown)
VH: EVQLVQSGAEVKKPGETLKISCKGSGYSFTNYWIGWVRQMPGKGLECMGIIDPSDSETRYSPSFQGQVTISADKSTNTAFLQWSTVKASDTAIYYCARLGYGDSPPFDFWGQGAGVTVS
VL: MTQSPLSLPVTPGESASISCRSSQSLLYSNGYNHLDWYVQKPGQPPQLLIFLGSTRASGVSDRVSGSGSGTDFTLQISRVEAEDVGVYYCMQALETPYTFGQGTKLEVK
With B3, the Kd turned out to be 0.12 nM in assay [2]; 1 nM in [4]; 1.7 nM in assay [6]; 8 nM in [8]; 0.2 nM in [11]; 1 nM in assay [13]. The Kd in assay [16] was 2.2 nM; in [17], 8 nM; in assay [18], 0.4 nM; in assay [19], 4.1 nM; in assay [20], 5.3 nM; in assay [23], 0.3 nM.

B4: S1V2-60 recombinant human IgG1 (antibody, V domains shown)
VH: EVQLVQSGAEVSEPGKSLKISCKGSAYSFINYWIGWVRQMPGKGLECMGIIDPSDSETRYNPSFEGHVLISADTSINTAYLQWSSLRASDTAMYYCVRLGYGDSPPFDSWGQGTLVTVS
VL: MTQSPFSLPVTPGEPASISCRSSQSLLYSNGYNHLDWYQQKPGQPPQLLIFLGSRRASGVPDRFSGSGSGTDFTLKISRVEAEDVGVYYCMQALQDPYTFGQGTKLEIK
Take B4: the Kd in [2] amounted to 0.13 nM; in [4], 0.86 nM; in assay [5] it was 0.16 nM; in assay [6] it was 0.77 nM; in [7], 0.28 nM; in assay [8], 0.48 nM. Moreover, the Kd in assay [9] was found to be 0.26 nM; in assay [10] it was 3.2 nM; in assay [11], 0.17 nM; in assay [12] it was 0.26 nM; in assay [13] it was 0.73 nM; in [14], 0.25 nM. For the same molecule, the Kd in [16] stood at 1.2 nM; in [17], 0.65 nM; in assay [18], 0.39 nM; in assay [19] it was 3.5 nM; in [20], 3.7 nM; in [21], 20 nM. In addition, the results for the Kd in [22] and in [23] were 0.27 nM and 0.26 nM, respectively.

B5: S8V1-157 recombinant human IgG1 (antibody, V domains shown)
VH: EVQLVQSGAEVKKPGASVKVSCKVSGYRLTALSMHWVRQAPGKGLEWMGGFDPEEDETIYAQNFQGRVTLTEDTSTDTVYMELSSLRSEDTGVYYCATLMGANPFDYWGQGTLIIVSG
VL: not shown
Take B5: the Kd in assay [2] was below 0.1 nM; in assay [4], 3.8 nM; in assay [5] it was 0.18 nM; in assay [6] it was 4.5 nM; in [7], 0.22 nM; in assay [8], 26 nM. Also, the Kd is 0.49 nM in [9]; 0.32 nM in [11]; 0.42 nM in [12]; 1.2 nM in assay [13]; 0.29 nM in [14]; 2.7 nM in assay [16]. Besides, the Kd in assay [17] is 6 nM; in assay [18] it was 2.1 nM; in [19], 8.3 nM; in assay [20], 8.1 nM; in assay [22], 0.21 nM; in assay [23], 1.2 nM.
